Pooled drug test results. Numbers come from NIAID ChemDB, via PubChem.

Shared fields: tests in culture

An empty or dashed field is not shown.

compound	strain	dose	measure	cell line	species	read by	value
C=CCc1ccc(O)c(OC)c1	2778		MIC90		Candida tropicalis	turbidity	500 µg/mL
O=c1[nH]c(=O)n([C@H]2C[C@H](O)[C@@H](CO)O2)cc1I	KANNO	0.1 µg/mL	inhibition	HELF	Varicella zoster virus	plaque count	0%
CCO/N=C/c1ccc(OCCC2CCN(c3ccc(Cl)nn3)CC2)cc1	1059 (ICAM-1 receptor group 14)		EC50	KB	Rhinovirus	neutral red	0.052 µM
Oc1ccccc1N=Cc1ccc2c(c1)OCO2	23/10993		MIC99		Cryptococcus gattii		4 µg/mL
CCC(CC)O[C@@H]1C=C(C(=O)O)C[C@H](N)[C@H]1NC(C)=O	H1N1 isolate C23C		EC50	MDCK	Influenza A virus	plaque count	≤0.045 µg/mL
O=S(=O)(O)c1ccc(N=Nc2c(O)ccc3cc(S(=O)(=O)O)ccc23)cc1		5 µg/mL	inhibition	Human conjunctiva cells	Herpes simplex virus	cytopathic effect	0%
Cc1cn([C@@H]2O[C@H](CO)[C@@H](O)[C@@H]2F)c(=O)nc1N	Asahikawa	0.01 µg/mL	inhibition	HELF	Varicella zoster virus	plaque count	27%
Oc1ccccc1N=Cc1cccc(O)c1O	LMM 818		MIC99		Cryptococcus gattii		4 µg/mL
Cc1cc(-c2ccc(N=Nc3c(N)c(S(=O)(=O)O)cc4cc(S(=O)(=O)O)ccc34)c(C)c2)ccc1N=Nc1c(N)ccc2cc(S(=O)(=O)O)ccc12	TYPE 3	10 µg/mL	inhibition	Human amnion AV3 cells	Adenovirus	cytopathic effect	10%
CCc1cn([C@@H]2O[C@H](CO)[C@@H](O)[C@@H]2O)c(=O)[nH]c1=O	Kawaguchi	10 µg/mL	inhibition	HELF	Varicella zoster virus	plaque count	0%
Oc1ccccc1N=Cc1ccc(F)cc1	ATCC 32608		MIC99		Cryptococcus gattii		22.6 µg/mL
O=S(=O)(O)c1cc(O)c2c(O)cc(S(=O)(=O)O)cc2c1	TYPE 3	10 µg/mL	inhibition	Human embryonic lung cells	Adenovirus	cytopathic effect	20%
CCOC(=O)c1c(C)nc(NCCCNc2ccnc3cc(Cl)ccc23)nc1-c1ccccc1	ATCC 24067		MIC		Cryptococcus neoformans		5.7 µg/mL
NS(=O)(=O)O	TYPE 3	50 µg/mL	inhibition	Human embryonic lung cells	Adenovirus	cytopathic effect	0%
O=c1[nH]c(=O)n([C@H]2C[C@H](O)[C@@H](CO)O2)cc1/C=C/Br	Ohtomo	0.001 µg/mL	inhibition	HELF	Varicella zoster virus	plaque count	82%
O=C(Nc1cc(S(=O)(=O)O)cc2cc(S(=O)(=O)O)cc(O)c12)c1ccccc1		5 µg/mL	inhibition	Human amnion AV3 cells	Herpes simplex virus	cytopathic effect	0%
Cc1cc(CCCOc2c(C)cc(-c3noc(C(F)(F)F)n3)cc2C)on1	Isolate 11		EC50	OHIO HELA-I	Rhinovirus	cytopathic effect / visual reading	0.03 µg/mL
Nc1nc(=O)n([C@@H]2O[C@H](CO)[C@@H](O)[C@@H]2F)cc1I	KANNO	0.1 µg/mL	inhibition	HELF	Varicella zoster virus	plaque count	100%
Nc1ccc2cc([N+](=O)[O-])cc(S(=O)(=O)[O-])c2c1	TYPE 3	10 µg/mL	inhibition	Human embryonic lung cells	Adenovirus	cytopathic effect	45%
CC(=O)N[C@H]1[C@H]([C@H](O)[C@H](O)CO)OC(C(=O)O)=C[C@@H]1N=C(N)N	Influenza A/Johannesburg/33/94 (H3N2)		EC50	MDCK	Influenza A virus	visual reading	0.12 µM
O=C(O)c1cc(S(=O)(=O)[O-])ccc1O	TYPE 3	5 µg/mL	inhibition	Human amnion AV3 cells	Adenovirus	cytopathic effect	0%
Cc1nc(NCCCCNc2ccnc3cc(Cl)ccc23)nc(-c2ccccc2[N+](=O)[O-])c1C(=O)OC(C)C	196L/03		MIC99		Cryptococcus gattii		8 µg/mL

A second listing of 3 rows from above:

{"compound": "Cc1cc(CCCOc2c(C)cc(-c3noc(C(F)(F)F)n3)cc2C)on1", "strain": "Isolate 11", "measure": "EC50", "cell line": "OHIO HELA-I", "species": "Rhinovirus", "read by": "cytopathic effect / visual reading", "value": "0.03 µg/mL"}
{"compound": "NS(=O)(=O)O", "strain": "TYPE 3", "dose": "50 µg/mL", "measure": "inhibition", "cell line": "Human embryonic lung cells", "species": "Adenovirus", "read by": "cytopathic effect", "value": "0%"}
{"compound": "Cc1cn([C@@H]2O[C@H](CO)[C@@H](O)[C@@H]2F)c(=O)nc1N", "strain": "Asahikawa", "dose": "0.01 µg/mL", "measure": "inhibition", "cell line": "HELF", "species": "Varicella zoster virus", "read by": "plaque count", "value": "27%"}

Percent inhibition refers to the dose given; in toxicity tests it is the harm to the cells. ECn: concentration that inhibits the pathogen or its effect by n%. Neighbouring rows are from separate reports. MIC50, MIC90 and the like: level of inhibition, or share of isolates inhibited.